Target: human σ1 receptor (Homo sapiens, UniProt Q99720)
Design: key to the marks not given beside the values
Conditions: combined class from Ki-σ1 (human σ1 receptor, A1) and Ki-μ (human μ-opioid receptor, A2) radioligand binding

Sequences of proteins named here, by UniProt entry; tags and fusion partners are left off.
UniProt Q99720, whole entry, looked up: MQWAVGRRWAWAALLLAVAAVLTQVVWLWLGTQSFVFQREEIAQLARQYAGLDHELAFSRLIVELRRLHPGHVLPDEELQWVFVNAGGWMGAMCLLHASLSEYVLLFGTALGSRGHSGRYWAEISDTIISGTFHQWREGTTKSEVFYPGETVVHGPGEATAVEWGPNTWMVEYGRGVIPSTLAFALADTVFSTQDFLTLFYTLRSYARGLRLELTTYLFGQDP

SMILES: CC1OC2(CCN(CCn3cnc4ccccc43)CC2)CN(c2ccccc2)C1=O.Cl (stereo not shown)
- μ and σ1 dual binding: ++

Source: patent US10703765B2 (priority 2014, dated 2020)
